Measured values from patent publication US8709743B2, “Inhibitors of bacterial nitric oxide synthase, and related screening methods” (Massachusetts Institute of Technology, priority 2007, dated 2014).

Experiment: Fluorescence quantum yield
Format: physicochemical

**Q.** Which “quantum yield (Φ)” value does the source give for `Cc1ccc2cccc(N(Cc3c(O)ccc4c(-c5ccccc5C(=O)O)c5cc(Cl)c(=O)cc-5oc34)N=O)c2n1` [FL5-NO, 2-{2-chloro-6-hydroxy-5-[((2-methylquinolin-8-yl)(nitroso)amino)-methyl]-3-oxo-3H-xanthen-9-yl}-benzoic acid] here?
**A.** The value was 0.58±0.02.

**Q.** For `Cc1ccc2cccc(NCc3c(O)ccc4c(-c5ccccc5C(=O)O)c5cc(Cl)c(=O)cc-5oc34)c2n1` [FL5, 2-{2-chloro-6-hydroxy-5-[(2-methyl-quinolin-8-ylamino)-methyl]-3-oxo-3H-xanthen-9-yl}-benzoic acid], which “quantum yield (Φ)” value is on record?
**A.** The value was 0.077±0.002.
